Measured values: patent US20050163775A1, “Combination therapy for B cell disorders” (Genentech, Inc., priority 2003, published 2005)

Sequences of proteins named here, by UniProt entry; tags and fusion partners are left off. Residues count along the entry.
UniProt Q9Y275, 82-285: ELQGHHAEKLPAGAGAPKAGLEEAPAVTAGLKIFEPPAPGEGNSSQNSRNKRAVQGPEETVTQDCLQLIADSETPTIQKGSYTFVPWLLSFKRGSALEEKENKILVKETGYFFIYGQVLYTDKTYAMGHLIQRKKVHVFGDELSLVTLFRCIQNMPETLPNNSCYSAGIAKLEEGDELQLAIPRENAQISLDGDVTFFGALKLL

Each compound was assayed against T1, BAFF (Homo sapiens, UniProt Q9Y275) (assay: Competitive displacement ELISA (biotinylated miniBR3), 17-mers vs BR3 ECD). Conditions: from IC50 values of competitive displacement ELISA.
T1 construct: A DNA fragment encoding human BAFF (residues 82-285) was cloned; His-tag (with thrombin cleavage site) (N, cleaved yes); made in house; host or cells: E. coli BL21 (DE3)
Type: binding

| Compound | affinity for BAFF relative to BR3 ECD |
| --- | --- |
| CC(=O)N[C@@H](CCC(=O)O)C(=O)N[C@H]1CSSC[C@@H](C(=O)NCC(=O)N[C@@H](CC(C)C)C(=O)N[C@@H](CC(C)C)C(=O)N[C@@H](CCCNC(=N)N)C(N)=O)NC(=O)[C@@H]2CCCN2C(=O)[C@H](C(C)C)NC(=O)[C@H](Cc2c[nH]c3ccccc23)NC(=O)[C@H](Cc2c[nH]cn2)NC(=O)[C@H](CCCNC(=N)N)NC(=O)[C@H](C(C)C)NC(=O)[C@H](CC(C)C)NC(=O)[C@H](CC(C)C)NC(=O)[C@H](CC(=O)O)NC(=O)[C@H](Cc2ccccc2)NC1=O [BLyS0048] | greater affinity for BAFF than the 62-mer BR3 ECD |
| Ac-ECFDLLVRAWVPCSVLK-NH2 (N-acetyl, C-amide; sequence is synthesized) [BLyS0051] | greater affinity for BAFF than the 62-mer BR3 ECD |
| Ac-ECFDLLVRHWVACGLLR-NH2 (N-acetyl, C-amide; sequence is synthesized) [BLyS0027] | greater affinity for BAFF than the 62-mer BR3 ECD |
